Data as given in PubChem BioAssay AID1259414 (Drosophila RNAi Screening Center, 2018).

Purpose: 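Fly genes that alter Wolbachia amount inside host cells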 (primary screen)
System: Drosophila JW18 cells infected with Wolbachia
Reagent: long dsRNA against Drosophila genes, 0.25 µg dsRNA per well of a 384-well plate
Time to read-out: 5 days
Treatment: cells persistently infected with Wolbachia before knock-down; no added drug
Read-out: 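Automated imaging of bacterial rRNA staining divided by host cell count, reported as plate-normalised robust z-score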
Scale: Wolbachia per cell robust z: higher = more Wolbachia per host cell than the plate typical
Hit rule: 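Active if absolute robust z reaches 1.5 in two or more of three replicates, leaving out multi- or no-target dsRNAs, genes unexpressed in JW18 and A1 wells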
The deposit covers about 24,000 reagents; shown is an unselected part of those that have a named target and a result. In the full data, about 1,210 (5%) were called active. 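Inactive calls also include excluded dsRNAs with several or no targets, genes unexpressed in JW18, and well A1, regardless of score.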 Entries without a mark were called inactive.

Against Rcd2 (Reduction in Cnn dots 2) [DRSC11756], the entry reads Wolbachia per cell robust z, rep 1 = -0.628; Wolbachia per cell robust z, rep 2 = 0.0346; Wolbachia per cell robust z, rep 3 = -0.101. Cyp6t3 (Cytochrome P450 6t3) [DRSC07388] scored Wolbachia per cell robust z, rep 1 = 0.394; Wolbachia per cell robust z, rep 2 = 1.23; Wolbachia per cell robust z, rep 3 = 1.2. With knock-down of Spec2 [DRSC12258], the record shows Wolbachia per cell robust z, rep 1 = 0.0765; Wolbachia per cell robust z, rep 2 = 0.0401; Wolbachia per cell robust z, rep 3 = -0.839. After knock-down of Spec2 [DRSC22886] the results were Wolbachia per cell robust z, rep 1 = -0.435; Wolbachia per cell robust z, rep 2 = -1.12; Wolbachia per cell robust z, rep 3 = 0.0594. Against tos (tosca) [DRSC03624], the entry reads Wolbachia per cell robust z, rep 1 = -1.2; Wolbachia per cell robust z, rep 2 = 0.452; Wolbachia per cell robust z, rep 3 = -0.388. Depletion of CG32945 [DRSC12014] resulted in: Wolbachia per cell robust z, rep 1 = -0.447; Wolbachia per cell robust z, rep 2 = -0.923; Wolbachia per cell robust z, rep 3 = -0.862.

For CG17600 [DRSC20640], the values are Wolbachia per cell robust z, rep 1 = 0.302; Wolbachia per cell robust z, rep 2 = -0.31; Wolbachia per cell robust z, rep 3 = -0.386. CG17600 [DRSC22753] scored Wolbachia per cell robust z, rep 1 = -0.597; Wolbachia per cell robust z, rep 2 = -9.66; Wolbachia per cell robust z, rep 3 = 0.0223. Knock-down of CG17600 [DRSC27203] resulted in: Wolbachia per cell robust z, rep 1 = -0.312; Wolbachia per cell robust z, rep 2 = -0.289; Wolbachia per cell robust z, rep 3 = -6.32. After knock-down of rha [DRSC17044], the screen gave Wolbachia per cell robust z, rep 1 = -9.98; Wolbachia per cell robust z, rep 2 = 0.017; Wolbachia per cell robust z, rep 3 = 3.09. Silencing of CG7252 [DRSC10789] resulted in: Wolbachia per cell robust z, rep 1 = -1.55; Wolbachia per cell robust z, rep 2 = -0.0294; Wolbachia per cell robust z, rep 3 = -1.34. With knock-down of CG7252 [DRSC21492], the record shows Wolbachia per cell robust z, rep 1 = 0.383; Wolbachia per cell robust z, rep 2 = -1.49; Wolbachia per cell robust z, rep 3 = 0.0267.
